A mixed list of measured activities; the numbers were collected in NIAID ChemDB.

Common to all: growth or infection tests; organism: Adenovirus

ECn is the concentration giving n% inhibition of infection, replication or growth. An empty or dashed field is not shown. Lines come from different laboratories, so protocols vary.

compound	strain or isolate	read by	endpoint	cells	result
COc1ccc(/C=N/N=C(/N)NO)c(OC)c1OC.Cc1ccc(S(=O)(=O)O)cc1	ATCC VR18 (TYPE 17)	plaque count	EC50	VERO	>50 µM
COc1cc(O)c(/C=N/N=C(\N)NO)c(OC)c1.Cc1ccc(S(=O)(=O)O)cc1	WT 300 (TYPE 5)	plaque count	EC50	A549	100 µM
CSc1nsc(-c2ccccc2)c1C#N	TYPE 2	plaque count	EC50	HEP-2	>20 µM
CC1(C(=O)O)CCC2(C)CCC3(C)C(=CC(=O)C4C5(C)CCC(OC(=O)C6CCCCC6C(=O)O)C(C)(C)C5CCC43C)C2C1	TYPE 5	virus yield	EC99	-	150 µM
Nc1ccn([C@H]2CC[C@@H](CO)O2)c(=O)n1	TYPE 37	-	EC50	HEP-2	3.82 µg/mL
COc1cc(/C=N/N=C(/N)NO)cc(OC)c1OC.Cc1ccc(S(=O)(=O)O)cc1	ATCC VR18 (TYPE 17)	plaque count	EC50	VERO	>50 µM
O=C(O)CC(NC(=O)CNC(=O)c1cccc(NC2=NCC(O)CN2)c1)c1cc(Cl)cc(Cl)c1	TYPE 2	-	EC50	HUMAN 293/beta5	100 µM
Cc1nsc(C)c1C#N	TYPE 2	plaque count	EC50	HEP-2	>1000 µM
NC(=O)Nc1cccc(C(=O)NCC(=O)NC(CC(=O)O)c2cccnc2)c1	TYPE 2	-	EC50	HeLa	>100 µM
COc1ccc(/C=N/N=C(\N)NO)cc1.Cc1ccc(S(=O)(=O)O)cc1	ATCC VR18 (TYPE 17)	plaque count	EC50	VERO	>50 µM
Nc1ncnc2c1ncn2C[C@@H](CO)OCP(=O)(O)O	TYPE 2	-	MIC	-	0.3 µg/mL
CC(C)CS[C@H]1C[C@@H](n2cnc3c(N)ncnc32)[C@H](O)[C@@H]1O	TYPE 1	cytopathic effect	EC50	A549	>100 µg/mL
Nc1ccn(C[C@@H](CO)OCP(=O)(O)O)c(=O)n1	TYPE 4	-	MIC	-	3 µg/mL
C#C[C@@H](CC(=O)O)NC(=O)CNC(=O)c1cccc(N=C(N)N)c1	TYPE 2	-	EC50	HeLa	>100 µM
Nc1nc2c(ccn2[C@@H]2C[C@H](CO)[C@@H](O)[C@H]2O)c(=O)[nH]1	-	-	MIC	-	>100 µg/mL
Nc1ncnc2c1ncn2[C@@H]1C[C@H](NC=O)[C@@H](O)[C@H]1O	TYPE 1	-	EC50	HFF	>100 µg/mL
CSc1nsc(C)c1C#N	TYPE 2	plaque count	EC50	HEP-2	>100 µM
NCC(=O)N[C@@H](CCCN=C(N)N)C(=O)NCC(=O)N[C@@H](CC(=O)O)C(=O)N[C@@H](CO)C(=O)N1CCC[C@H]1C(=O)O	TYPE 2	-	EC50	HUMAN 293/beta5	2000 µM
CSc1nsc(-c2cccs2)c1C#N	TYPE 2	plaque count	EC50	HEP-2	>6 µM
CCCCS(=O)(=O)NC(Cc1ccc(NC(=O)c2cccc(NC3=NCCCCC3)c2)cc1)C(=O)O	TYPE 2	-	EC50	HUMAN 293/beta5	>100 µM

2 of the rows above, restated:

compound	strain or isolate	read by	endpoint	cells	result
COc1ccc(/C=N/N=C(\N)NO)cc1.Cc1ccc(S(=O)(=O)O)cc1	ATCC VR18 (TYPE 17)	plaque count	EC50	VERO	>50 µM
Nc1ccn(C[C@@H](CO)OCP(=O)(O)O)c(=O)n1	TYPE 4	-	MIC	-	3 µg/mL